Biological target: PRV gB ectodomain, soluble (residues A59 to N752, strain HN1201) (Pseudorabies virus (strain HN1201))
Test: BLI

B1: 1H1 Fab (wild type) (Fab, V domains shown)
VH: QVKLQESGAELVKPGASAKAACEASGYTFTSYWIHWVKQRPGQGLDWIGEINTSSGRTNYNERFKNKATLTVDKTSSTAYIQLSSLTSEDSAVYYCAREGFGNQSLDYWGQGTSLTVSS
VL: DIILTQSPAIMSASLGERVTLTCTASSSVSSSYLHWYQQKPGSSPKLWIYSTYNLAGAVPPRFSGSGSGTSYSLTISSMEAEDAATYYCQQYHRSPWTFGGGTKLEIK
modifications: N-linked glycan at N103 of the HCDR3 loop
  Kd: 3.3 nM

B2: 1H1_NL Fab (N103 in HCDR3 replaced with alanine) (antibody, V domains shown)
VH: QVKLQESGAELVKPGASAKAACEASGYTFTSYWIHWVKQRPGQGLDWIGEINTSSGRTNYNERFKNKATLTVDKTSSTAYIQLSSLTSEDSAVYYCAREGFGAQSLDYWGQGTSLTVSS
VL: DIILTQSPAIMSASLGERVTLTCTASSSVSSSYLHWYQQKPGSSPKLWIYSTYNLAGAVPPRFSGSGSGTSYSLTISSMEAEDAATYYCQQYHRSPWTFGGGTKLEIK
  Kd: 3100 nM
